Test results taken from the supplement of paper PMC9931576.
Residue numbers refer to the chain shown, from its start. Human monoclonal antibodies against the spike receptor-binding domain (heavy:light variable regions). IC50 against pseudoviruses bearing the spike of naturally observed variants; lower = stronger; >10 µg/ml means not reached at the top dose. No active / inactive call. The stated detection limit is 0.0005 µg/ml; values near or below 0.001 µg/ml lie at the floor of the assay.

B1: BD55-1345 (protein)
chain 1: EVQLVESGGGLVQPGGSLRLSCSASGFVFSSYAMHWVRQAPGRGLEYVSSISSNGDSTDYADSVKGRFTISRDNSKNTLFLQMSSLRVEDTAVYYCVKDTLTRWEIFFDYWGQGTLVSVSS
chain 2: DIQMTQSPSSLSASVGDRVTITCRASQNINRYLIWYQQKPGKAPNLLIYAASTLQSGVPSRFSGSGSGTDFTLTISSLQPEDFATYYCQQSYTTPPTFGQGTKVEIK
B2: BD55-1507 (protein)
chain 1: EVQLVESGGGLVQPGGSLRLSCSASGFTFSSYSFHWVRQAPGKGLEHVSAISRNGDITDSADSVKGRFTISRDNSKNTLYLQMSSLRVEDTARYYCVKDVDTVMVTLFDYWGQGTLVTVSS
chain 2: B1 chain 2 with N28S, N30S, I34N, N45K, A50V, A51T, T53S, P96Y, V104L
B3: BD55-1341 (protein)
chain 1: QVTLRESGPALVKPTQTLTLTCTFSGFSLSTTGMCINWIRQPPGKALEWVARIDWNDDKYYSPSLKTRLTISKDTSKNQVVLTMTNMDPVDTATYYCARISTGGYGNYAYFFDYWGQGSLVTVSS
chain 2: SYELTQPPSLSVSPRQTARITCSGDAFPKQYAYWYQQKPGQAPVLVIYKDTERPSGIPERFSGSSSGTTVTLTITGVQAEDEADYYCQSADSSAVVFGGGTKLTVL
B4: BD55-1576 (protein)
chain 1: QVQLVESGTEVKKPGDSVKVSCKASGYTFTGHYIHWVRQAPGQGLEWMGWISPMTGATKYAQRFRDRVTMTIDTSTTTGYMELRRLTGDDAAIYYCARDLSFAMVRGDLDSWGQGALVTVFS
chain 2: QSVLTQPASVSGSPGQSITISCTGTTSDAESYNVVSWYQQHPGKVPKLIIYEGTKRPSGVSNRFSGSKSGDTASLTISGLQAEDEADYYCCSYAGSSTWVFGRGTKLTVL
B5: BD55-1381 (protein)
chain 1: DVQLVESGGGLVRPGGSLRLSCSASGFTFSSYVMHWVRQAPGKGLEYVADISSNGDITYYADSVKGRFTISRDNSKRELYLQMSSLRSEDTAVYYCVKDDLTSMTTLFDYWGQGTLVTVSS
chain 2: DIQMTQSPSSLSASVGDSVTLTCRASQTISRFLNWYQQKPGKAPKLLIYDASYLKSGVPSRFSGSGSGTDFILTITSLQPEDFATYYCQQSYTTPVTFGQGTKVEVK
B6: BD55-1354 (protein)
chain 1: EVQLVESGGGLVQPGGSLRLSCVGSGISFSTYSMNWVRQAPGKGLEWVSSISVSSSYIYYADSVKGRFIVSRDNAKNSLYLQLNSLRAEDTAVYYCATDPTVMVQNSFDFWGQGTLVTVSS
chain 2: DIQMTQSPSSLSASVGDRVTITCRASQSISSFLNWYQQKPGKAPKLLIYGASSLQSGVPSRFSGSGSGTDFTLTISSLQPEDFATYYCQQSYSTLITFGQGTRLDIK
B7: BD55-1416 (protein)
chain 1: EVQLVESGGGLVHLGGSLRLSCSASGFTFSRYAMHWVRQAPGKGLEYVSGISSDGGIRDYADSVKGRFTISRDNSKNTLYLQMGSLRADDTAIYYCVKDDLTSVTTLFDYWGQGTLVTVSS
chain 2: B6 chain 2 with S9F, S31T, F32Y, G50S, Q79R, S93T, T94N, L95P, I96P, R103K
B8: BD55-1398 (protein)
chain 1: EVQLVESGGGLVQPGGSLRLSCAASGFTFSSYDMHWVRQSTGKGLEWVSVIGTAGDRYYPDSVKGRFTISRDNAKNSLYLQMNSLGAGDTAMYYCVRGHFDRSGFYSMFDYWGQGTLVIVSS
chain 2: DFQMTQSPSSLSASVGDRVTITCRASQTIRNYLNWYQQKPGKAPKLLIYAASSLQSGVPSRFSGSGSGTDFTLTISSLQPEDFATYYCQQSYVSIYTFGQGTTLEIK
B9: BD55-1396 (protein)
chain 1: EVQLVQSGAEVKKPGESLKISCKASGYKFTNYWIAWVRQMPGKGLECMGIIYPDDSDSRYSPSFQGQVTISADKSITTAYLQWGSLKASDTAMYYCARHIRPYCSGDCSTDAFDIWGQGTMVTVSS
chain 2: QSVLTQPPSVSAAPGQKVTISCSGSSSNIGNNYVSWYQHLPGTAPKLLIFDNNQRPSGIPDRFSGSKSGTSATLGITGLQTGDEADYYCGTWDSSLNTGVFGGGTKLTVL
B10: BD55-1435 (protein)
chain 1: EVQLVESGGGLVKPGGSLRLSCAASGFTFTNAWMSWVRQAPGKGLEWVGLIKSNTDGGTTDYAAPVKGRVTISRDDSKNTVYLQMNSLKTEDTAVYYCTQSRWFLLPFLNWGQGTLVTVSS
chain 2: QSVLTQPPSASGTPGQRVTISCSGSSSNIGSNAVNWYQQLPGTAPKLLIYNSNQRPSGVPDRFSGSKPGTSASLAISGLQSEDEADYYCAAWDDSLNGWLFGGGTKLTVL
B11: BD55-1579 (protein)
chain 1: QVQLVQSGAELKNPGSSVKVSCKTSGDTFTKYAITWVRQAPGQGLEWMGRIIPLFGMANYAQKFQGRVTFTADKSTDTVYMEMTSLTSEDTAVYFCARGAYQSDSSGYHCHHWGQGTLVTVSS
chain 2: EIVLTQSPGILSLSPGERATLSCRASQIVSGNYLAWYQQKVGQAPRLLMYGASNRATGVPDRFSGSGSGTDFTLTITRVEPEDFAVYYCQQYVSSPRSFGQGTKVEFK
B12: BD-605 (protein)
chain 1: EVQLVESGGGLIQPGGSLRLSCAASGFTVSSNYMSWVRQAPGKGLEWVSVIYSGGSTFYADSVKGRFTISRDNSKNTLYLQMNSLRAEDTAVYYCARDLGAYGMDVWGQGTTVTVSS
chain 2: DIQLTQSPSFLSASVGDRVTITCRASQGISSYLAWYQQKPGKAPKLLIYAASTLQSGVPSRFSGSGSGTEFTLTISSLQPEDFATYYCQQLNSDLYTFGQGTKLEIK
B13: BD55-1442 (protein)
chain 1: QVQLVQSGAEVKKPGSSVKVSCKASGGTFSSYAISWVRQAPGQGLEWMGRIIPIIGIANYAQKFQGRVTITADKSTSTVYMELSSLRSEDTAVYYCARRGGPMVRGGDYGLDVWGQGTTVTVSS
chain 2: QSVLTQPPSVSGAPGQRVTISCTGSNSNIGAGYDVHWYQQLPGTAPKLLIYGNSNRPSGVPDRFSGSKSDTSASLAITGLQVEDEADYYCQSYDSSLSDYVFGTGTEVTVL

Legend:
Experiment in all cases: pseudovirus neutralization IC50; higher = weaker neutralization
[1] = target: SARS-CoV-2 Omicron BA.1 spike pseudovirus
Protocol: (§1)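 Single-round VSV luciferase pseudovirus mixed with antibody dilutions for 1 h and put on Huh-7 cells for about a day; IC50 from the dose curve.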

[2] = target: SARS-CoV-2 Omicron BA.2 spike pseudovirus
Protocol: as §1

[3] = target: SARS-CoV-2 Omicron BA.2.75 spike pseudovirus
Protocol: as §1

[4] = target: SARS-CoV-2 Omicron BA.5 spike pseudovirus
Protocol: as §1

[5] = target: SARS-CoV-2 Omicron BQ.1.1 spike pseudovirus
Protocol: as §1

[6] = target: SARS-CoV-2 Omicron XBB spike pseudovirus
Protocol: as §1

[7] = target: SARS-CoV-2 early D614G spike pseudovirus
Protocol: as §1

Row | Binder | pseudovirus neutralization IC50 [1] [µg/mL] | pseudovirus neutralization IC50 [2] [µg/mL] | pseudovirus neutralization IC50 [3] [µg/mL] | pseudovirus neutralization IC50 [4] [µg/mL] | pseudovirus neutralization IC50 [5] [µg/mL] | pseudovirus neutralization IC50 [6] [µg/mL] | pseudovirus neutralization IC50 [7] [µg/mL]
1 | B1 | > 10 | > 10 | > 10 | > 10 | > 10 | > 10 | > 10
2 | B2 | > 10 | > 10 | > 10 | > 10 | > 10 | > 10 | > 10
3 | B3 | > 10 | > 10 | > 10 | > 10 | > 10 | > 10 | > 10
4 | B4 | > 10 | > 10 | > 10 | > 10 | > 10 | > 10 | 0.001
5 | B5 | 5.88 | 6.11 | 4.94 | 4.04 | 5.01 | 4.99 | 3
6 | B6 | 0.663 | 0.0861 | 0.618 | > 10 | > 10 | > 10 | 0.0138
7 | B7 | > 10 | > 10 | > 10 | > 10 | > 10 | > 10 | 1.72
8 | B8 | > 10 | 8.18 | > 10 | 6.73 | > 10 | > 10 | 1.47
9 | B9 | > 10 | > 10 | > 10 | > 10 | > 10 | > 10 | > 10
10 | B10 | > 10 | > 10 | > 10 | > 10 | > 10 | > 10 | 0.0506
11 | B11 | > 10 | > 10 | > 10 | > 10 | > 10 | > 10 | 0.0455
12 | B12 | > 10 | > 10 | > 10 | > 10 | > 10 | > 10 | 0.0935
13 | B13 | 0.392 | 0.42 | 0.458 | 8.73 |  |  | 0.0389
